Compound potency records, mixed from different reports. Data source: NIAID ChemDB in PubChem.

All rows: whole-cell or culture tests; agent: Plasmodium falciparum; read-out: EC50

An empty or dashed field is not shown.

smiles,strain or isolate,mutations,read by,conditions,value
COc1ccc(/C=C/C=C/C(=O)c2ccc(OC)cc2)cc1,INDO,,SYBR Green / fluorescence,,25 µM
Cc1c(O)c2ccccc2c2c1sc(NC1CCCCC1)[n+]2CCCN1CCOCC1,Dd2,,hypoxanthine uptake,,0.19 µM
COc1cc(/C=C/C(=O)c2ccc(-n3nnc4ccccc43)cc2)cc(OC)c1OC,,,,,8.15 µg/mL
CCCCCCCCCCCC(=O)NC(CCCC[NH3+])C(=O)NCCCC(=O)NC(CCCC[NH3+])C(N)=O,NF54,,hypoxanthine uptake,,2.1 µM
N#CC1=C(N)Oc2[nH]ncc2C1(c1cc(Cl)cc(Cl)c1)C1CCC1,NF54,,radiometric,,>2.77 µM
N=C(N)c1ccc(OCCOc2ccc(C(=N)N)cc2)cc1,W2,,hypoxanthine uptake,,0.878 µM
Cc1[nH]nc2c1C(c1cc(Cl)cc(-c3ccc(C(=O)OCc4ccccc4)cc3)c1)(C1CCC1)C(C#N)=C(N)O2,NF54,,radiometric,,0.038 µM
CCCCCC(=O)NCCCCCC(=O)NC(CCCC[NH3+])C(=O)NCCCCCCCCCCCC(=O)NC(CCCC[NH3+])C(N)=O,NF54,,hypoxanthine uptake,,5.6 µM
COc1ccc(/C=C/C=C/C(=O)c2ccc(Cl)cc2)cc1OC,Dd2,,SYBR Green / fluorescence,,25 µM
N=C(N)c1ccc(NCCCCNc2ccc(C(=N)N)cc2)cc1,D6,,hypoxanthine uptake,,0.053 µM
COc1ccc(/C=C/C(=O)c2ccc(N3CCN(C)CC3)cc2)cc1,,,,,6.9 µg/mL
CCN(CC)CCCC(C)Nc1ccnc2cc(Cl)ccc12,Dd2,,LDH / absorbance,,0.1018 µM
Nc1nccc(-c2cn(Cc3ccc(Cl)s3)c3ccccc23)n1,D6,,LDH,,>14.43 µM
CCCCCC(CCCCCC=O)NC(CCCC[NH3+])C(=O)NCCCCCCCCCCCC(=O)NC(CCCC[NH3+])C(=O)NC(C=O)CCCC[NH3+],NF54,,hypoxanthine uptake,,1.2 µM
Cc1[nH]nc2c1C(c1cc(C#N)cc(N3CCCC3=O)c1)(C1CCC1)C(C#N)=C(N)O2,NF54,,radiometric,,>2.41 µM
N=C(N)c1ccc(OCCOc2ccc(C(=N)N)cc2[N+](=O)[O-])c([N+](=O)[O-])c1,W2,,hypoxanthine uptake,,0.768 µM
CCN(CC)CCCC(C)Nc1ccnc2cc(Cl)ccc12,KAE678R-3,KAE678-resistant pfatp4 I203M/I263V,SYBR Green / fluorescence,,0.0124 µM
CC(C)CC1(O)C(N)=Nc2ccc(Cl)cc21,Dd2,,,,0.27 µM
COc1cc(OC)c(OC)cc1/C=C/C=C/C(=O)c1ccc(Cl)cc1,3D7,,SYBR Green / fluorescence,,22.5 µM
C=CCC[C@@H]1C[C@@H]2CC[C@@H]3C[C@H](CCC=C)NC(=N1)N32,W2,,LDH,,10.98 µM
COc1ccc(/C=C/C(=O)c2ccc(N3CCCC3)cc2)cc1OC,,,,,2.91 µg/mL
C[C@H]1Cc2c([nH]c3cc(Cl)c(F)cc23)[C@@]2(N1)C(=O)Nc1ccc(Cl)cc12,GNF-Pf4492R-2,GNF-Pf4492-resistant I203L/P990R,SYBR Green / fluorescence,,0.00285 µM
COc1ccc2[nH]c(-c3ccc(Cc4ccc(OC(F)(F)F)cc4)cc3)c(C)c(=O)c2c1,W2,,,,0.013 µM
CC1CC2CCC3CC(CCc4ccccc4)N=C(N1)N32,W2,,LDH,,9.93 µM
CCOc1ccccc1C(=O)n1cc(-c2ccnc(N)n2)c2ccccc21,D6,,LDH,,>14.43 µM
CC(C)=CCCC1CC2CCCC3CC(C)NC(=N1)N23,W2,,LDH,,9.45 µM
Cc1c(O)c2ccccc2c2c1sc(NCCCN(C)C)[n+]2C,D10,,hypoxanthine uptake,,0.21 µM
COc1cc(C2=NCCN2)ccc1OCCCOc1ccc(C2=NCCN2)cc1OC,W2,,hypoxanthine uptake,,0.039 µM
COc1cccc2[nH]c(-c3ccc(Cc4ccc(OC(F)(F)F)cc4)cc3)c(C)c(=O)c12,3D7,,,,0.465 µM
CCc1ccc(Nc2nc(NCCCCNc3ccnc4cc(Cl)ccc34)nc(N3CCOCC3)n2)cc1,W2,,,,0.18 µM
O=C1[C@@H](NCCNc2ccnc3cc(Cl)ccc23)[C@@H](/C=C/c2ccccc2)N1C1CCCCCC1,W2,Chloroquine-resistant,flow cytometry,,0.1223 µM
Cc1[nH]nc2c1C(c1cc(C#N)cc(-c3ccc(C(=O)N(C)C)s3)c1)(C(C)C)C(C#N)=C(N)O2,NF54,,radiometric,,0.059 µM
CCOC(=O)C1=C(C(=O)OCC)C2N(Cc3ccccc3C(F)(F)F)c3ccccc3[C@@]23C[C@@H](C(=O)OC)N(S(=O)(=O)c2ccc(C)cc2)C3=N1,CP250,,SYBR Green / fluorescence,,0.6 µM
NC(=O)C(CCCC[NH3+])NC(=O)CCCCCCCNC(=O)C(CCCC[NH3+])NC(=O)CCCCCCCNC(=O)C(CCCC[NH3+])NC(=O)CCCCCCCNC(=O)C(CCCC[NH3+])NC(=O)CCCCCCCNC(=O)C(N)CCCC[NH3+],FCR3,,hypoxanthine uptake,,90 µM
OCCCNc1nc(NCCCCNc2ccnc3cc(Cl)ccc23)nc(N2CCCCC2)n1,D6,,,,0.06 µM
Cc1c(-c2ccc(-c3ccc(OC(C)(C)C)cc3)nc2)[nH]c2cc(F)ccc2c1=O,TM902CB,,SYBR Green,,0.183 µM
COc1cc(OC)c(OC)cc1/C=C/C=C/C(=O)c1ccc2ccccc2c1,3D7,,SYBR Green / fluorescence,,50 µM
NCCCCCCCC(=O)NC(CCCC[NH3+])C(=O)NCCCCCCCC(=O)NC(CCCC[NH3+])C(=O)NCCCCCCCC(=O)NC(CCCC[NH3+])C(=O)NCCCCCCCC(=O)NC(CCCC[NH3+])C(N)=O,FCR3,,hypoxanthine uptake,,94 µM
CC(C)CN1C(=O)[C@H](NC(=O)CNc2ccnc3cc(Cl)ccc23)[C@@H]1/C=C/c1ccccc1,W2,Chloroquine-resistant,flow cytometry,,1.03 µM
Cn1nc(C(F)(F)F)c(-c2ccc(Br)cc2)c1NC(=O)Nc1ccc(F)cc1F,KAE678R-3,KAE678-resistant (I203M/I263V),SYBR Green / fluorescence,,1.6 µM
CCN(CC)CCCC(C)Nc1ccnc2cc(Cl)ccc12,CQ-resistant W2 strain,,,10% human serum,0.099 µM
COc1cc(OC)c(OC)cc1/C=C/C(=O)c1ccc(Cl)cc1,3D7,,SYBR Green / fluorescence,,4 µM
COc1cc2c(cc1OC)[C@H]1O[C@](CCCCN3C(=O)c4ccccc4C3=O)(C2)OC2=C1C(=O)CC(C)(C)C2,7G8 GB4,,SYBR Green / fluorescence,,2.5 µM
CC(=O)c1cccc(C2(O)C(N)=Nc3ccc(Cl)cc32)c1,3D7,,,,0.529 µM
O=c1[nH]c(-c2c[nH]c3ccc(I)cc23)nc2ccccc12,W2,,LDH,,>14.49 µM
N=C(N)c1ccc(OCCCCCOc2ccc(C(=N)N)cc2[N+](=O)[O-])c([N+](=O)[O-])c1,W2,,hypoxanthine uptake,,0.114 µM
Cc1[nH]nc2c1C(c1cc(Cl)cc(-c3cccc(C#N)c3)c1)(C1CCC1)C(C#N)=C(N)O2,NF54,,radiometric,,0.46 µM
COC(=O)C1=C(C)N(Cc2cccc(C(F)(F)F)c2)C(=NCc2cccc(C(F)(F)F)c2)NC1c1cccc(Cl)c1,7G8,,SYBR Green / fluorescence,,2.8 µM
Cc1[nH]nc2c1C(c1cc(C#N)cc(-c3ccc(C(=O)O)s3)c1)(C(C)C)C(C#N)=C(N)O2,TM90C2B,,radiometric,,1.25 µM
Cc1ccc(N2C(=O)[C@@H](NCCNc3ccnc4cc(Cl)ccc34)[C@H]2/C=C/c2ccccc2)cc1,W2,Chloroquine-resistant,flow cytometry,,0.0943 µM
COc1ccc2c(c1)C(O)(c1ccccc1)C(N)=N2,Dd2,,,,0.385 µM
NC(=O)C(CCCC[NH3+])NC(=O)CCCCCCCNC(=O)C(CCCC[NH3+])NC(=O)CCCCCCCNC(=O)C(CCCC[NH3+])NC(=O)CCCCCCCNC(=O)C(CCCC[NH3+])NC(=O)CCCCCCCNC(=O)C(CCCC[NH3+])NC(=O)CCCCCCCNC(=O)C(N)CCCC[NH3+],FCR3,,hypoxanthine uptake,,84 µM
O=C(/C=C/C=C/c1ccc2c(c1)OCO2)c1ccc(F)cc1,3D7,,SYBR Green / fluorescence,,50 µM
N=C(N)c1ccc(OCCCCCOc2ccc(C(=N)N)cc2)cc1,W2,,hypoxanthine uptake,,0.129 µM
CCN(CC)CCCC(C)Nc1ccnc2cc(Cl)ccc12,3D7,,absorbance,,0.013 µM
CC1CC2CCCC3CC(CCc4ccccc4)N=C(N1)N32,W2,,LDH,,12.45 µM
CCCCNc1sc2c(C)c(O)c3ccc(C(C)=NN=C(N)N)cc3c2[n+]1C,D10,,hypoxanthine uptake,,0.6 µM
COc1ccc(OC)c(/C=C/C(=O)c2ccc(N3CCN(C)CC3)cc2)c1,,,,,10.1 µg/mL
Fc1ccc(Nc2nc(NCCCNc3ccnc4cc(Cl)ccc34)nc(N3CCOCC3)n2)cc1,W2,,,,0.33 µM
COC(=O)C1=C(C(=O)OC)C2N(Cc3ccccc3)c3ccccc3[C@@]23C[C@@H](C(=O)OC)N(S(=O)(=O)c2ccc(Br)cc2)C3=N1,HB3 Dd2,,SYBR Green / fluorescence,,1.6 µM
COc1ccc(/C=C/C(=O)c2ccc(-n3nnc4ccccc43)cc2)cc1OC,,,,,3.5 µg/mL
NC1=Nc2ccc(Cl)cc2[C@]1(O)c1ccccc1,Dd2,,,,0.675 µM
N=C(N)c1ccc(OCCCCOc2ccc(C(=N)N)cc2Cl)c(Cl)c1,W2,,hypoxanthine uptake,,0.089 µM
Clc1cccc(CC[C@H]2C[C@H]3CCC[C@H]4C[C@@H](CCc5cccc(Cl)c5)NC(=N2)N34)c1,W2,,LDH,,1.64 µM
COc1ccc2c(=O)c(C)c(-c3ccc(Cc4ccc(OC(F)(F)F)cc4)cc3)[nH]c2c1,3D7,,,,0.381 µM
CCOC(=O)C1=C(C(=O)OCC)C2N(Cc3ccccc3C(F)(F)F)c3ccccc3[C@@]23C[C@@H](C(=O)OC)N(S(=O)(=O)c2c(C)noc2C)C3=N1,HB3 Dd2,,SYBR Green / fluorescence,,0.6 µM
COc1ccc(Nc2nc(NCCNc3ccnc4cc(Cl)ccc34)nc(N3CCOCC3)n2)cc1,D6,,,,0.25 µM
COc1cc(/C=C/C(=O)c2ccc(N3CCN(C)CC3)cc2)cc(OC)c1OC,,,,,4.7 µg/mL
CCCCCC[C@]12Cc3cc(OC)c(OC)cc3[C@@H](O1)c1c(c3ccccc3n(C)c1=O)O2,CP250,,SYBR Green / fluorescence,,6 µM
O=C(/C=C/C=C/c1ccc2c(c1)OCO2)c1ccc(Cl)cc1,INDO,,SYBR Green / fluorescence,,64 µM
COc1cc(C2=NCCN2)ccc1OCCCCCOc1ccc(C2=NCCN2)cc1OC,D6,,hypoxanthine uptake,,0.236 µM
COc1cc2c(NC3CCN(C)CC3)nc(N3CCCN(C)CC3)nc2cc1O,3D7,,fluorescence,,>2 µM
COc1ccc2[nH]cc(C3(O)C(N)=Nc4ccc(Cl)cc43)c2c1,Dd2,,,,>5 µM
Cc1ccc(N2C(=O)[C@@H](NCCCNc3ccnc4cc(Cl)ccc34)[C@H]2/C=C/c2ccccc2)cc1,W2,Chloroquine-resistant,flow cytometry,,0.1641 µM
COc1ccc(OC)c(/C=C/C(=O)c2ccc(-n3cccc3)cc2)c1,,,,,6.36 µg/mL

A second listing of 9 rows from above:

smiles,strain or isolate,mutations,read by,conditions,value
CCN(CC)CCCC(C)Nc1ccnc2cc(Cl)ccc12,CQ-resistant W2 strain,,,10% human serum,0.099 µM
NCCCCCCCC(=O)NC(CCCC[NH3+])C(=O)NCCCCCCCC(=O)NC(CCCC[NH3+])C(=O)NCCCCCCCC(=O)NC(CCCC[NH3+])C(=O)NCCCCCCCC(=O)NC(CCCC[NH3+])C(N)=O,FCR3,,hypoxanthine uptake,,94 µM
COc1cc2c(cc1OC)[C@H]1O[C@](CCCCN3C(=O)c4ccccc4C3=O)(C2)OC2=C1C(=O)CC(C)(C)C2,7G8 GB4,,SYBR Green / fluorescence,,2.5 µM
CCCCCCCCCCCC(=O)NC(CCCC[NH3+])C(=O)NCCCC(=O)NC(CCCC[NH3+])C(N)=O,NF54,,hypoxanthine uptake,,2.1 µM
COc1cc(OC)c(OC)cc1/C=C/C(=O)c1ccc(Cl)cc1,3D7,,SYBR Green / fluorescence,,4 µM
COc1ccc(/C=C/C(=O)c2ccc(N3CCCC3)cc2)cc1OC,,,,,2.91 µg/mL
Cc1[nH]nc2c1C(c1cc(C#N)cc(N3CCCC3=O)c1)(C1CCC1)C(C#N)=C(N)O2,NF54,,radiometric,,>2.41 µM
COc1ccc2c(c1)C(O)(c1ccccc1)C(N)=N2,Dd2,,,,0.385 µM
Cc1c(O)c2ccccc2c2c1sc(NC1CCCCC1)[n+]2CCCN1CCOCC1,Dd2,,hypoxanthine uptake,,0.19 µM

ECn is the concentration giving n% inhibition of infection, replication or growth. Rows are shuffled and stem from different studies.